Pooled drug test results. Numbers come from NIAID ChemDB, via PubChem.

All rows: whole-cell or culture tests

ECn: concentration that inhibits the pathogen or its effect by n%. Neighbouring rows are from separate reports. An empty or dashed field is not shown. MIC50, MIC90 and the like: level of inhibition, or share of isolates inhibited. a–b is a range or a potency band. Percent inhibition refers to the dose given; in toxicity tests it is the harm to the cells.

compound	read by	tested at	agent	strain or isolate	cell line	endpoint	result
O=c1[nH]c(=O)n([C@H]2C[C@H](O)[C@@H](CO)O2)cc1I	plaque count	1 µg/mL	Varicella zoster virus	YS	HELF	inhibition	57%
CCCCCCCC[N+](C)(C)COC(C)CCC	-	-	Staphylococcus aureus	ATCC 6538	-	MBC	17 µM
O=C(NCc1ccccc1-c1ccncn1)c1c2n(c(=O)n1-c1ccc(OCC(F)(F)F)cc1)CCN(C(=O)c1ccc(Br)c(Cl)c1)C2	PCR	-	Hepatitis B virus	-	HepG2.117	EC50	<0.1 µM
CCCCCCCCCCCC[N+](C)(C)COCCCCC	-	-	Staphylococcus aureus	ATCC33592	-	MBC	7.14 µM
O=C(CC(=O)Nc1cc(C(F)(F)F)cc(C(F)(F)F)c1)Nc1ccc(C(F)(F)F)cc1	-	-	Klebsiella pneumoniae	KL21	-	MIC	>300 µM
CC(C)N=C(N)/N=C(\N)NOCCCOc1cc(Cl)c(Cl)cc1Cl	-	-	Mycobacterium avium complex	690	-	MIC	32 µg/mL
Fc1cccc(Cn2cnc3c(Nc4cccc(F)c4)nc(C(F)(F)F)nc32)c1	plaque count	-	Rhinovirus	Serotype 9	M-HELA	EC50	1.4 µM
O=C(NNC(=O)Nc1ccccc1C(F)(F)F)Nc1cc(C(F)(F)F)cc(C(F)(F)F)c1	-	-	Escherichia coli	ES142	-	MIC	>300 µM
CCCCCCCCCCCC[N+](C)(C)CSCCCCCC	-	-	Staphylococcus aureus	ATCC 6538	-	MBC	131 µM
CCCC(CCC)C(NC(C)=O)C1CC(C(=O)O)CC1N=C(N)N	-	-	Influenza A virus	H3N2 A/X-31	MDCK	EC50	<0.01 µM
O=C(NNC(=O)Nc1cc(C(F)(F)F)cc(C(F)(F)F)c1)Nc1cc(C(F)(F)F)cc(C(F)(F)F)c1	-	-	Klebsiella pneumoniae	KL21	-	MIC	>300 µM
CCCC(CCC)C(NC(C)=O)C1C(N=C(N)N)CC(C(=O)O)C1O	-	-	Influenza A virus	Influenza A/Shandong/09/93 (H3N2)	MDCK	EC50	0.23 µM
CC(C)Oc1ccc(-n2c(C(=O)NCc3ccc(C(F)F)cc3)c3n(c2=O)CCN(C(=O)c2ccc(Br)c(Cl)c2)C3)cc1	PCR	-	Hepatitis B virus	-	HepG2.117	EC50	0.1–0.5 µM
Nc1nccc2c1ncn2[C@@H]1CC[C@@H](O)[C@H]1O	-	-	Sindbis virus	-	-	MIC	>100 µg/mL
Nc1nc2c(ncn2COCCO)c(=O)[nH]1	plaque count	0.1 µg/mL	Varicella zoster virus	OKA	HELF	inhibition	3%
Nc1ccn(C[C@@H](CO)OCP(=O)(O)O)c(=O)n1	-	-	Adenovirus	TYPE 2	-	MIC	3 µg/mL
Nc1nc(=O)n([C@@H]2O[C@H](CO)[C@@H](O)[C@@H]2F)cc1I	plaque count	0.1 µg/mL	Varicella zoster virus	Asahikawa	HELF	inhibition	81%
CN(Cc1ccccc1)C(=O)c1c2n(c(=O)n1-c1ccccc1)CCN(C(=O)c1ccc(Br)c(Cl)c1)C2	PCR	-	Hepatitis B virus	-	HepG2.117	EC50	0.5–5 µM
Cc1cc(-c2ccc(N=Nc3ccc4c(S(=O)(=O)O)cc(S(=O)(=O)O)c(N)c4c3O)c(C)c2)ccc1N=Nc1ccc2c(S(=O)(=O)O)cc(S(=O)(=O)O)c(N)c2c1O	cytopathic effect	5 µg/mL	Herpes simplex virus	-	Human amnion AV3 cells	inhibition	10%
Cc1ccc(-n2cc(C(C)(C)O)nn2)cc1C	broth dilution	2048 µg/mL	Candida parapsilosis	URM 4261	-	inhibition	0%
O=S(=O)([O-])c1cc(NS(=O)(=O)c2ccccc2)c2c(S(=O)(=O)[O-])cc(S(=O)(=O)[O-])cc2c1	cytopathic effect	50 µg/mL	Adenovirus	TYPE 3	Human embryonic lung cells	inhibition	90%
Nc1nccc2c1ncn2[C@@H]1C=C[C@@H](O)[C@H]1O	-	-	Semliki Forest virus	-	-	MIC	>200 µg/mL
CCCCCCCCCOC[N+](C)(C)CCCCCCCC	-	-	Staphylococcus aureus	ATCC 6538	-	MBC	2.86 µM
CCC(CC)[C@H](NC(C)=O)[C@@H]1[C@H](O)[C@@H](C(=O)O)C[C@H]1N=C(N)N	-	-	Influenza A virus	H1N1 A/Bayern/07/95	MDCK	EC50	1 µM
O=C(NNC(=O)NC1CCCCC1)Nc1cc(C(F)(F)F)cc(C(F)(F)F)c1	-	-	Escherichia coli	ES142	-	MIC	>200 µM
Nc1ncnc2c1ncn2C[C@@H](CO)OCP(=O)(O)O	-	-	Epstein-Barr virus	-	-	MIC	0.03 µg/mL
COc1ccc(-n2c(C(=O)NCc3ccc4c(c3)OCO4)c3n(c2=O)CCN(C(=O)c2ccc(Br)c(Cl)c2)C3)cc1	PCR	-	Hepatitis B virus	-	HepG2.117	EC50	0.1–0.5 µM
Cc1cn([C@@H]2O[C@H](CO)[C@@H](O)[C@@H]2F)c(=O)nc1N	plaque count	0.01 µg/mL	Varicella zoster virus	Asahikawa	HELF	inhibition	27%
CC(C)(O)c1cn(-c2cccc3ccccc23)nn1	broth dilution	2048 µg/mL	Candida parapsilosis	URM 4607	-	inhibition	0%
O=c1[nH]c(=O)n([C@@H]2O[C@H](CO)[C@@H](O)[C@@H]2O)cc1/C=C/Cl	plaque count	0.0001 µg/mL	Varicella zoster virus	KANNO	HELF	inhibition	23%
S=c1cc(-c2ccccc2)s[nH]1	plaque count	-	Encephalomyocarditis virus	Encephalomyocarditis virus	L929	EC50	>90 µM
N#Cc1cc([N+](=O)[O-])ccc1Oc1ccc(Cl)c(Cl)c1	-	25 µg/mL	Coxsackie virus	TYPE A21	VERO	inhibition	100%
CN[C@H]1CC[C@@H](c2ccc(Cl)c(Cl)c2)c2ccccc21	broth dilution	-	Cryptococcus neoformans	Bt81	-	MIC90	5 µg/mL
CCCCCCCCCCCC[N+](C)(C)CSCCCC	-	-	Staphylococcus aureus	ATCC 6538	-	MBC	14.2 µM
O=C(NNc1ccccn1)Nc1cc(C(F)(F)F)cc(C(F)(F)F)c1	-	-	Escherichia coli	ES142	-	MIC	>300 µM
NC(=NC1CCCC1)c1ccc(-c2ccc(-c3ccc(C(N)=NC4CCCC4)cc3)o2)cc1	-	-	Candida albicans	Isolate 1866	-	MFC	25 µg/mL
Nc1ncnc2c1ncn2[C@@H]1CC[C@@H](O)[C@H]1O	-	-	Reovirus	TYPE 1	-	MIC	0.07 µg/mL
NCS(=O)(=O)O	cytopathic effect	10 µg/mL	Herpes simplex virus	-	Human amnion AV3 cells	inhibition	70%
CC(C)(O)c1cn(-c2ccccc2)nn1	broth dilution	2048 µg/mL	Candida parapsilosis	URM 4608	-	inhibition	0%
O=C(NNC(=O)Nc1ccc(Cl)c(Cl)c1)Nc1ccc(Cl)c(Cl)c1	-	-	Escherichia coli	ES142	-	MIC	>314 µM
CC(C)(O)c1cn(-c2ccc3ccccc3c2)nn1	broth dilution	2048 µg/mL	Candida parapsilosis	URM 4607	-	inhibition	0%
CCN=C1NC2C(OC(CO)C(O)C2O)S1	flow cytometry	0.1 µM	Kaposi sarcoma virus	-	HEK 293	inhibition	24%
Cc1ccc(C(=O)Nc2ccc(S(=O)(=O)O)c3cc(S(=O)(=O)O)cc(S(=O)(=O)O)c23)cc1NC(=O)c1cccc(NC(=O)Nc2cccc(C(=O)Nc3cc(C(=O)Nc4ccc(S(=O)(=O)O)c5cc(S(=O)(=O)O)cc(S(=O)(=O)O)c45)ccc3C)c2)c1	cytopathic effect	10 µg/mL	Herpes simplex virus	-	Human conjunctiva cells	inhibition	70%
CCCCCCCCCCCC[N+](C)(C)COCCCC	-	-	Staphylococcus aureus	ATCC33592	-	MBC	4.46 µM
CCc1nc2ccccc2c(=O)n1NC(=O)Nc1cc(C(F)(F)F)cc(C(F)(F)F)c1	-	-	Escherichia coli	ES142	-	MIC	>300 µM
CSc1nsc(-c2ccccc2Cl)c1C#N	plaque count	-	Measles virus	Edmonston	HEP-2	EC50	>5 µM
O=[N+]([O-])c1ccc(Cn2cnc3c(Nc4cccc(F)c4)nc(C(F)(F)F)nc32)cc1	plaque count	-	Rhinovirus	Serotype 2	M-HELA	EC50	16.4 µM
CCCCCCCCCCCCCCCCCCCCCCOCC(C)(COCCCCCCCCCCCCCCCCCCCCCC)CO[C@]1(C(=O)O)C[C@H](OS(=O)(=O)O)[C@@H](NC(C)=O)[C@H]([C@H](OS(=O)(=O)O)[C@@H](COS(=O)(=O)O)OS(=O)(=O)O)O1	-	-	Rotavirus	WA (serotype 1)	MA-104	EC50	0.82 µg/mL
COc1ccc(-c2snc(SC)c2C#N)cc1	plaque count	-	Encephalomyocarditis virus	Encephalomyocarditis virus	L929	EC50	>10 µM
C=CCc1ccc(OC)c(OC)c1	turbidity	-	Candida albicans	2434	-	MIC90	345 µg/mL
COc1ccc(-n2c(C(=O)NCc3ccc4[nH]c(=O)[nH]c4c3)c3n(c2=O)CCN(C(=O)c2ccc(Cl)c(Cl)c2)C3)cc1	PCR	-	Hepatitis B virus	-	HepG2.117	EC50	>5 µM
CCCCCCCCCCOC[N+](C)(C)CCCCCCCC	-	-	Staphylococcus aureus	ATCC33592	-	MBC	13.7 µM
O=S(=O)(O)c1ccc2cc(O)c(S(=O)(=O)O)cc2c1	cytopathic effect	5 µg/mL	Herpes simplex virus	-	Human conjunctiva cells	inhibition	0%
COc1ccc(-n2c(C(=O)NC3(CO)CC3)c3n(c2=O)CCN(C(=O)c2ccc(Cl)c(Cl)c2)C3)cc1	PCR	-	Hepatitis B virus	-	HepG2.117	EC50	>5 µM
Nc1c(S(=O)(=O)[O-])cc2cc(S(=O)(=O)[O-])ccc2c1O	cytopathic effect	50 µg/mL	Herpes simplex virus	-	Human conjunctiva cells	inhibition	0%
O=C(NCc1c(F)ccc2nccnc12)c1c2n(c(=O)n1-c1ccc(-n3cccn3)cc1)CCN(C(=O)c1ccc(Br)c(Cl)c1)C2	PCR	-	Hepatitis B virus	-	HepG2.117	EC50	0.1–0.5 µM
Nc1ccc(Cn2cnc3c(Nc4cccc(F)c4)nc(C(F)(F)F)nc32)cc1	plaque count	-	Rhinovirus	Serotype 4	M-HELA	EC50	19 µM
Nc1ncnc2c1ncn2C=C1CC1CO	plaque count	-	Human cytomegalovirus	VR4991 (ganciclovir-resistant)	-	EC50	1.7 µM
CCN(c1cccc(F)c1)c1nc(C(F)(F)F)nc2c1ncn2Cc1cccc(F)c1	plaque count	-	Rhinovirus	Serotype 2	M-HELA	EC50	21 µM
C/C=C\[C@@H]1C[C@H](C(=O)O)N[C@H]1[C@@H](NC(C)=O)[C@](C)(CCC)OC	plaque count	-	Influenza B virus	HONG KONG/5/72	MDCK	EC50	0.0141 µM
O=S(=O)([O-])c1ccc(NS(=O)(=O)c2ccccc2)c2c(S(=O)(=O)[O-])cccc12	cytopathic effect	10 µg/mL	Herpes simplex virus	-	Human conjunctiva cells	inhibition	0%
Cc1nsc(C)c1C#N	plaque count	-	Encephalomyocarditis virus	Encephalomyocarditis virus	L929	EC50	>1000 µM

Again, the opening 3 rows:

{"compound": "O=c1[nH]c(=O)n([C@H]2C[C@H](O)[C@@H](CO)O2)cc1I", "read by": "plaque count", "tested at": "1 µg/mL", "agent": "Varicella zoster virus", "strain or isolate": "YS", "cell line": "HELF", "endpoint": "inhibition", "result": "57%"}
{"compound": "CCCCCCCC[N+](C)(C)COC(C)CCC", "agent": "Staphylococcus aureus", "strain or isolate": "ATCC 6538", "endpoint": "MBC", "result": "17 µM"}
{"compound": "O=C(NCc1ccccc1-c1ccncn1)c1c2n(c(=O)n1-c1ccc(OCC(F)(F)F)cc1)CCN(C(=O)c1ccc(Br)c(Cl)c1)C2", "read by": "PCR", "agent": "Hepatitis B virus", "cell line": "HepG2.117", "endpoint": "EC50", "result": "<0.1 µM"}